# Measurements reported in patent US9340769B2 (priority 2008, dated 2016).
# B1: sialidase: recombinant P. acnes cell wall-anchored sialidase (gi|50843035) 6×NH fusion protein; enzyme and, with Freund adjuvants, vaccine (protein)
# chain: MTLTTKLSALAIAGIMAVIGAPMVTQSAMASGRAPAPDAATTQPKLVTGDITSTDQSGTHLFFGKNIVRNAKGAIMKVDRTWPAAVPAPLPDVRADSSTRMLLGPVVDLAVNEHPAGVFYRIPALATASNGDLLASYDLRPGSAADAPNPNSIVQRRSRDNGRTRGPQTVIHAGTLGRRKVGYSDPSYLVDPATGHILNFHVKSYDRGFATSEVGTDPDDRHVLHAEVSTSTDNGHTWTYRDITREITPDPTTRTRFVASGQGIALLHGPHAGGLIAQMTVRNSVGQQAQSIYSDDHGITWHAGNPVGRMMDENKVVELSDGTLMLNSRDAARSGRRKVAYSHDGGLTWGPVKLVDDLIDPTNNAQIIRAYPNARAGSAKARILLFTNARNATERVNGTLSVSCDDGRTWVSHQTYMPGEVGYTTAAVQSDGALGVLWERDGIRYSTIPMGWLNSVCPVAPSGRPTSGEPTSGTSLPLTATPSGSLHGGASSRPTSLPHTGD
# modifications: left off: small tags and cut ends
# Assays:
# HaCaT or RAW264.7 cells = settings: SMase 350 mU/ml 15 min, then CAMP factor 25 μg/ml 18 hr
# human SZ95 sebocytes = assay: Susceptibility of sialidase-treated sebocytes to P. acnes (cell death by trypan blue, adherence by CFU); settings: sialidase 10 μg/ml 2 h, then live P. acnes 10^7 per 10^6 cells overnight; 15~20% in untreated or GFP-treated
molecule,measurement,setting,value
bacterial SMase: sphingomyelinase from S. aureus (Sigma),cell susceptibility to CAMP factor after SMase pretreatment,HaCaT or RAW264.7 cells,increased the cell susceptibility to CAMP factor
B1,"P. acnes-induced cell death in sialidase-treated sebocytes, increased by",human SZ95 sebocytes,35%
